Experimental data taken from patent US20250134946A1 (GEL4MED, INC., priority 2021, published 2025).

System: decorin
Experiment: ChaseABC release from peptide hydrogels, bioactivity on decorin (FIGS. 6B, 15)
Conditions: 5-day period
Excerpt: The protein was not degraded.
In addition to release and retention rates, in analogous experiments the released and retained ChaseABC enzyme will also be assayed for bioactivity. Activity will be assessed through the efficacy of the sample to digest the small proteoglycan decorin as described previously.
Importantly, the protein was not degraded.

## chondroitinase ABC [ChaseABC]
  degradation of the released protein: not degraded
Two different types of peptide hydrogels
  release from peptide hydrogels: released differentially
